The experiment has as its system Salmonella enterica ser. Livingstone 1236H. As to the kind of experiment: Microbroth dilution MIC. It counts as cell-based. As for the experimental part:
Antimicrobial Assays. […] Susceptibility testing was performed using the microbroth dilution method in 96 round-well microtiter plates as previously described [A20]. Compounds were prepared as 50× of stocks (10 Mm) by dissolving in Di H2O. All bacterial strains were grown and assayed M9 glucose media (with amendments added as required), and yeast strains in YMM. Controls wells contained 200 µM kanamycin (for bacteria) or nystatin (for yeasts), no compound addition (vehicle only), and no cell addition (added media instead). Culture densities (OD600) were recorded using a Bio-Rad xMark microplate spectrophotometer after 16 hours for all strains except bacilli, which were recorded after 24 hours. […] MICs values are from triplicate assays performed on separate days. Disk diffusion assays were used to assess antimicrobial activity of the purified compounds against filamentous fungi and against Mycobacterium smegmatis [A20].

SMILES strings stand for the structures. Where only a bound is given, the exact number is not on record here.

What is called MIC is the smallest concentration in the dilution series that meets the test's criterion for growth inhibition.

With `CC(N)C(=O)NC(C)C(=O)NC(CP(=O)(O)O)C(=O)O` (stereo not shown) [Compound 3], the MIC was more than 200 µM.

(Values after patent US20250325569A1, “COMPOSITIONS AND METHODS OF MAKING AND USE THEREOF” (Ohio State Innovation Foundation, priority 2022, published 2025).)
